Measured values from several laboratories, pooled; numbers as filed in NIAID ChemDB.

Shared fields: whole-cell or culture tests; organism: Cryptococcus neoformans

MIC50, MIC90 and the like: level of inhibition, or share of isolates inhibited.

{"structure": "COC1CC2CCC(C)C(O)(O2)C(=O)C(=O)N2CCCCC2C(=O)OC(C(C)CC2CCC(O)C(OC)C2)CC(=O)C(C)/C=C(\\C)[C@@](O)(c2ccc(C)s2)C(OC)C(=O)C(C)CC(C)/C=C/C=C/C=C/1C", "endpoint": "MIC", "strain or isolate": "FRR1", "value": ">100 µg/mL"}
{"structure": "COc1ccccc1/C=C1\\CSc2ccccc2C1=O", "endpoint": "MIC", "strain or isolate": "Farwania", "value": "25 µg/mL"}
{"structure": "C[C@H]([C@](O)(Cn1cncn1)c1ccc(F)cc1F)S(C)(=O)=O", "endpoint": "EC50", "strain or isolate": "R716 (AZOLE-R)", "value": "1.8 µM"}
{"structure": "Oc1ccccc1N=Cc1ccc2c(c1)OCO2", "method": "broth dilution", "endpoint": "MIC", "strain or isolate": "ATCC 24067", "value": "4 µg/mL"}
{"structure": "COc1ccccc1C1SCC(=O)N1C(C)C(=O)O", "method": "broth dilution", "endpoint": "EC50", "value": "21.17 µM"}
{"structure": "COc1cc(C2C(C#N)=C(N)OC3=C2CSc2ccccc23)ccc1O", "endpoint": "MIC", "strain or isolate": "25", "value": "3 µg/mL"}
{"structure": "COc1ccc(N2CCN(CCc3nnn(CC(O)(Cn4cncn4)c4ccc(F)cc4F)n3)CC2)cc1", "endpoint": "MIC", "strain or isolate": "LA314", "value": ">16 µg/mL"}
{"structure": "CN[C@H]1CC[C@@H](c2ccc(Cl)c(Cl)c2)c2ccccc21", "method": "broth dilution", "endpoint": "MFC", "strain or isolate": "A7-35-23", "value": "10 µg/mL"}
{"structure": "Oc1ccccc1N=Cc1ccc(F)cc1", "endpoint": "MIC99", "strain or isolate": "5396", "value": "8 µg/mL"}
{"structure": "NC(=NC1CCCC1)c1ccc(-c2ccc(-c3ccc(C(N)=NC4CCCC4)cc3)o2)cc1", "endpoint": "Geometric mean MIC", "strain or isolate": "9 strains", "value": "0.91 µg/mL"}
{"structure": "COc1ccc2c(c1)-c1nc(OC)c(C#N)c(-c3ccc4c(c3)OCO4)c1CS2", "endpoint": "MIC", "strain or isolate": "Farwania", "value": "3 µg/mL"}
{"structure": "C[C@@H]1[C@H](O)[C@@H](C)/C=C/C=C/C=C/C=C/C=C/C=C/C=C/[C@H](O[C@@H]2O[C@H](C)[C@@H](O)[C@H](N)[C@@H]2O)C[C@@H]2O[C@](O)(C[C@@H](O)C[C@@H](O)[C@H](O)CC[C@@H](O)C[C@@H](O)CC(=O)O[C@H]1C)C[C@H](O)[C@H]2C(=O)O", "method": "broth dilution", "endpoint": "MIC", "strain or isolate": "Clinical isolate (IM 031633)", "value": "0.13 µg/mL"}
{"structure": "COC1CC2CCC(C)C(O)(O2)C(=O)C(=O)N2CCCCC2C(=O)OC(C(C)CC2CCC(O)C(OC)C2)CC(=O)C(C)/C=C(\\C)C(O)C(OC)C(=O)C(C)C[C@](C)(N(O)C(=O)NN2CCCCC2)/C=C/C=C/C=C/1C", "endpoint": "MFC", "strain or isolate": "FRR1", "value": ">100 µg/mL"}
{"structure": "CCOC(=O)c1c(C)nc(NCCCCNc2ccnc3cc(Cl)ccc23)nc1-c1ccc(F)cc1", "endpoint": "MIC99", "strain or isolate": "ATCC 62066", "value": "8 µg/mL"}
{"structure": "COc1nc2c(c(-c3ccc4ccccc4c3)c1C#N)CSc1ccc(Cl)cc1-2", "endpoint": "MIC", "strain or isolate": "93/V", "value": "25 µg/mL"}
{"structure": "CCC(C)CC(C)CCCCCCCCC(=O)N[C@H]1C[C@@H](O)[C@H](NCCN)NC(=O)[C@@H]2[C@@H](O)CCN2C(=O)[C@H]([C@H](O)CCN)NC(=O)[C@H]([C@H](O)[C@@H](O)c2ccc(O)cc2)NC(=O)[C@@H]2C[C@@H](O)CN2C(=O)[C@H]([C@@H](C)O)NC1=O", "method": "broth dilution", "endpoint": "MIC", "strain or isolate": "B 35735", "value": "16 µg/mL"}
{"structure": "COc1ccccc1N1CCN(CCc2nnn(CC(O)(Cn3cncn3)c3ccc(F)cc3F)n2)CC1", "endpoint": "MIC", "strain or isolate": "LA314", "value": ">8 µg/mL"}
{"structure": "CC[C@@H]([C@H](C)O)n1ncn(-c2ccc(N3CCN(c4ccc(OC[C@@H]5CO[C@@](Cn6cncn6)(c6ccc(F)cc6F)C5)cc4)CC3)cc2)c1=O", "endpoint": "MIC", "strain or isolate": "DUMC136.89", "value": "0.125 µg/mL"}
{"structure": "C[C@H](n1nnc(CCN2CCN(c3ccccc3)CC2)n1)[C@](O)(Cn1cncn1)c1ccc(F)cc1F", "endpoint": "MIC", "strain or isolate": "LA314", "value": ">16 µg/mL"}
{"structure": "COc1ccc2c(c1)C(=O)/C(=C/c1ccc(OC)c(OC)c1)CO2", "endpoint": "MIC", "strain or isolate": "Farwania", "value": "1.5 µg/mL"}
{"structure": "N#CC1=C(N)OC2=C(CSc3ccc(Cl)cc32)C1c1ccccc1", "endpoint": "MIC", "strain or isolate": "93/V", "value": "50 µg/mL"}
{"structure": "COC(=O)[C@H]1[C@@H]2C[C@@H](O[C@@H]3O[C@H](C)[C@@H](O)[C@H](N)[C@@H]3O)/C=C/C=C/C=C/C=C/C=C/C=C/C=C/[C@H](C)[C@@H](O)[C@H](C)[C@H](C)OC(=O)C[C@H](O)C[C@H](O)[C@@H](O)CC[C@H](O)C[C@H](O)C[C@](O)(C[C@@H]1O)O2", "endpoint": "MIC50", "strain or isolate": "42 isolates (HIV+)", "value": "0.03 µg/mL"}
{"structure": "Cn1nc(Cc2ccc(Cl)cc2)c2ccccc2c1=O", "method": "broth dilution", "endpoint": "MIC50", "strain or isolate": "ATCC 32264", "value": "3.9 µg/mL"}
{"structure": "O=C(O)C(Cc1ccccc1)N1C(=O)CSC1c1ccc(Cl)cc1", "method": "broth dilution", "endpoint": "EC50", "value": "49.8 µM"}
{"structure": "N#CC1=C(N)OC2=C(CSc3ccccc32)C1c1ccc2c(c1)OCO2", "endpoint": "MIC", "strain or isolate": "25", "value": "12.5 µg/mL"}
{"structure": "Cc1nc(NCCCCNc2ccnc3cc(Cl)ccc23)nc(-c2ccccc2)c1C(=O)OC(C)C", "endpoint": "MIC", "strain or isolate": "ATCC 24067", "value": "5.7 µg/mL"}
{"structure": "COc1ccccc1/C=C1\\COc2ccc(-c3ccccc3)cc2C1=O", "endpoint": "MIC", "strain or isolate": "Farwania", "value": "50 µg/mL"}
{"structure": "Oc1ccccc1N=Cc1cccc(O)c1O", "method": "broth dilution", "endpoint": "MIC", "strain or isolate": "96806", "value": "4 µg/mL"}
{"structure": "COc1ccc2c(c1)C(=O)/C(=C/c1ccc3c(c1)OCO3)CO2", "endpoint": "MIC", "strain or isolate": "25", "value": "25 µg/mL"}
{"structure": "NC(=O)C1=C(O)OC2=C(CSc3ccccc32)C1c1ccccc1", "endpoint": "MIC", "strain or isolate": "Farwania", "value": "12.5 µg/mL"}
{"structure": "C[C@@H](n1cnc2cc(Cl)ccc2c1=O)[C@](O)(Cn1cncn1)c1ccc(F)cc1F", "endpoint": "MIC", "strain or isolate": "Isolate 123.96", "value": "0.0024 µg/mL"}
{"structure": "CC[C@H]1/C=C(\\C)[C@H](O)[C@H](C)C[C@H](OC)[C@H]2O[C@@](O)(C(=O)C(=O)N3CCCC[C@H]3C(=O)O[C@H](/C(C)=C/[C@@H]3CC[C@@H](O)[C@H](OC)C3)[C@H](C)[C@@H](O)CC1=O)[C@H](C)C[C@@H]2OC", "endpoint": "MIC", "strain or isolate": "C20F1", "value": "50 µg/mL"}
{"structure": "O=C(O)C(Cc1ccccc1)N1C(=O)CCSC1c1ccccc1", "method": "broth dilution", "endpoint": "EC50", "value": "47.09 µM"}
{"structure": "C[C@@H](c1nc(-c2ccc(C#N)cc2)cs1)[C@](O)(Cn1cnnc1)c1ccc(F)cc1F", "endpoint": "MFC99", "strain or isolate": "A25838", "value": "0.5 µg/mL"}
{"structure": "COc1ccccc1N1CCN(CCc2nnnn2[C@@H](C)[C@](O)(Cn2cncn2)c2ccc(F)cc2F)CC1", "endpoint": "MIC", "strain or isolate": "LA314", "value": "4 µg/mL"}
{"structure": "Oc1cccc(C=Nc2ccccc2O)c1", "method": "broth dilution", "endpoint": "MIC", "strain or isolate": "F-10", "value": "8 µg/mL"}
{"structure": "O=C1/C(=C/c2ccc(Cl)cc2)COc2ccccc21", "endpoint": "MIC", "strain or isolate": "Farwania", "value": "6 µg/mL"}
{"structure": "N#CC1=C(N)OC2=C(CSc3ccc(Cl)cc32)C1c1cccc2ccccc12", "endpoint": "MIC", "strain or isolate": "93/V", "value": "50 µg/mL"}
{"structure": "Oc1ccccc1C=Nc1ccccc1O", "endpoint": "MIC99", "strain or isolate": "28JF", "value": "11.3 µg/mL"}
{"structure": "COc1ccc(/C=C2\\COc3ccc(OC)cc3C2=O)cc1", "endpoint": "MIC", "strain or isolate": "93/V", "value": "25 µg/mL"}
{"structure": "CC(C)CC(C(=O)O)N1C(=O)CSC1c1ccccc1", "method": "broth dilution", "endpoint": "EC50", "value": "28.94 µM"}
{"structure": "COc1ccc(/C=C2\\CS(=O)(=O)c3ccccc3C2=O)cc1", "endpoint": "MIC", "strain or isolate": "Farwania", "value": "25 µg/mL"}
{"structure": "Oc1ccc(O)c(C=Nc2ccccc2O)c1", "endpoint": "MIC99", "strain or isolate": "5396", "value": "11.3 µg/mL"}
{"structure": "C[C@@H](n1ncn(-c2ccc(OCC(F)(F)C(F)F)cc2)c1=O)[C@](O)(Cn1cncn1)c1ccc(F)cc1F", "endpoint": "MFC", "strain or isolate": "DUMC 124.96", "value": "0.5 µg/mL"}

Lines come from different laboratories, so protocols vary. ECn: concentration that inhibits the pathogen or its effect by n%.